Data source: PubChem BioAssay AID1224833 (University of Georgia, 2016)
Shown is a random part of about 12,000 reagents. About 5,600 of them (46%) were called active. 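Active calls cover z-scores past 1 in both directions, so they include lowered as well as raised rotavirus replication.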 Entries without a mark were called inactive.

Assay: 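Host factors restraining rotavirus as candidate antiviral genes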 (primary screen)
System: monkey MA104 kidney cells
Reagent: siRNA pool against human genes, 50 nM
Time to read-out: 48 h knock-down before infection; read 24 h after infection
Conditions: infection with rotavirus strain RV3 two days after transfection; infectious dose for this stage not given
Detection: 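z-score of rotavirus antigen signal per well, from a fluorescent immunoassay, relative to non-targeting control wells on the same plate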
Reading the numbers: z-score vs non-targeting control: higher = more rotavirus replication than with non-targeting control
Active means: In these data the active calls have z-score vs non-targeting control at about -1 or lower, or at about 1 or higher
Calls: active = z-score beyond 1 either way; inactive = z-score within 1 of zero

gene knocked down	z-score vs non-targeting control
LRIT3 (GeneID 345193)	3.44 (active)
CRACR2A (GeneID 84766)	0.866
ANAPC7 (GeneID 51434)	0.94
RSPH9 (GeneID 221421)	1.13 (active)
OPN4 (GeneID 94233)	-1.01 (active)
CR2 (GeneID 1380)	1.55 (active)
GUCD1 (GeneID 83606)	-1.35 (active)
DYM (GeneID 54808)	-2.25 (active)
RELN (GeneID 5649)	0.851
ASZ1 (GeneID 136991)	-0.159
SLC40A1 (GeneID 30061)	-0.776
KRTAP6-2 (GeneID 337967)	-0.783
TRAPPC4 (GeneID 51399)	0.0915
SVIL (GeneID 6840)	-0.982
APCDD1L (GeneID 164284)	1.64 (active)
AANAT (GeneID 15)	0.775
ACOX2 (GeneID 8309)	-2.6 (active)
MOB3B (GeneID 79817)	-0.552
LITAF (GeneID 9516)	1.48 (active)
PHACTR1 (GeneID 221692)	0.22
C5orf46 (GeneID 389336)	0.708
GTF2F2 (GeneID 2963)	1.71 (active)
PLTP (GeneID 5360)	-0.675
GPT2 (GeneID 84706)	-0.737
CCDC59 (GeneID 29080)	-0.0001
RAB6B (GeneID 51560)	-1.48 (active)
H1-4 (GeneID 3008)	-1.87 (active)
SRD5A3 (GeneID 79644)	-1.27 (active)
BEST1 (GeneID 7439)	0.0358
OR2J3 (GeneID 442186)	-0.746
CCKBR (GeneID 887)	-1.26 (active)
TAS2R39 (GeneID 259285)	-2.02 (active)
CENPBD1P (GeneID 92806)	1.26 (active)
ATP8B4 (GeneID 79895)	2.09 (active)
TBXT (GeneID 6862)	-0.668
RPL7L1 (GeneID 285855)	-0.486
SNX3 (GeneID 8724)	-0.75
PPIL1 (GeneID 51645)	-0.674
FBL (GeneID 2091)	-1.37 (active)
DOCK7 (GeneID 85440)	-2.05 (active)
PMPCB (GeneID 9512)	2.8 (active)
SV2B (GeneID 9899)	0.672
PDE4A (GeneID 5141)	-0.605
PRH2 (GeneID 5555)	0.165
CHMP4A (GeneID 29082)	-0.224
ZNF385C (GeneID 201181)	-1.87 (active)
FGF23 (GeneID 8074)	-0.909
HCLS1 (GeneID 3059)	0.554
MX2 (GeneID 4600)	-0.932
KRIT1 (GeneID 889)	0.648
ZNF415 (GeneID 55786)	-1.26 (active)
FUT8 (GeneID 2530)	-0.938
TST (GeneID 7263)	0.814
PDXP (GeneID 57026)	-1.66 (active)
RAB24 (GeneID 53917)	-1.69 (active)
HSPBAP1 (GeneID 79663)	0.734
TP53 (GeneID 7157)	-2.63 (active)
NSG2 (GeneID 51617)	-0.42
ERVW-1 (GeneID 30816)	-1.78 (active)
WNT8A (GeneID 7478)	0.17
AXIN1 (GeneID 8312)	-0.219
AMER1 (GeneID 139285)	-0.633
ZNF19 (GeneID 7567)	-0.917
METTL16 (GeneID 79066)	-1.24 (active)
SCRN3 (GeneID 79634)	-2.09 (active)
COTL1 (GeneID 23406)	-0.449
BLVRB (GeneID 645)	1.12 (active)
SUV39H1 (GeneID 6839)	-0.538
SPAG17 (GeneID 200162)	-1.89 (active)
NLRP13 (GeneID 126204)	0.632
ANKRD40 (GeneID 91369)	2.26 (active)
CENPP (GeneID 401541)	-0.922
SPCS2 (GeneID 9789)	-1.83 (active)
TMEM108 (GeneID 66000)	-0.554
ABCB7 (GeneID 22)	-1.47 (active)
OR6B3 (GeneID 150681)	2.5 (active)
HID1 (GeneID 283987)	-0.553
NSUN7 (GeneID 79730)	1.2 (active)
H2AC1 (GeneID 221613)	-0.773
STEEP1 (GeneID 63932)	-0.464
CD300LD-AS1 (GeneID 146723)	-2.26 (active)
WBP1 (GeneID 23559)	-0.472
CNPY3 (GeneID 10695)	1.05 (active)
KAT5 (GeneID 10524)	-0.92
POLR2D (GeneID 5433)	1.08 (active)
KRTCAP3 (GeneID 200634)	-0.815
PITX3 (GeneID 5309)	1.64 (active)
CTAGE6 (GeneID 340307)	-1.12 (active)
CTHRC1 (GeneID 115908)	-0.0436
TRIP13 (GeneID 9319)	-2.69 (active)
LCE2A (GeneID 353139)	-0.467
UCN (GeneID 7349)	-0.969
DOP1B (GeneID 9980)	0.637
OSBPL10 (GeneID 114884)	-0.551
PRTFDC1 (GeneID 56952)	-0.532
GPRIN2 (GeneID 9721)	1.68 (active)
OR10A6 (GeneID 390093)	-0.66
PRMT2 (GeneID 3275)	1.02 (active)
SLC22A8 (GeneID 9376)	-1.27 (active)
FNDC11 (GeneID 79025)	1.77 (active)
CRB3 (GeneID 92359)	-3.02 (active)
MAPK8IP3 (GeneID 23162)	-1.07 (active)
PARN (GeneID 5073)	-1.31 (active)
TAGLN2 (GeneID 8407)	-2.5 (active)
TSPAN2 (GeneID 10100)	-0.542
C4B (GeneID 721)	-0.29
PSG4 (GeneID 5672)	-0.821
BOLA1 (GeneID 51027)	-2.61 (active)
ABCE1 (GeneID 6059)	-0.864
SHANK1 (GeneID 50944)	0.216
